Anti-infective test results gathered from many reports (values: NIAID ChemDB through PubChem).

Shared fields: growth or infection tests; species: Candida albicans

Percent inhibition refers to the dose given; in toxicity tests it is the harm to the cells. Zone: diameter of growth inhibition. a–b is a range or a potency band. Lines come from different laboratories, so protocols vary. A number after MIC or MFC names an inhibition level or a share of isolates. An empty or dashed field is not shown. ECn: concentration that inhibits the pathogen or its effect by n%.

| structure | conditions | read-out | strain or isolate | method | tested at | value |
|---|---|---|---|---|---|---|
| CC(O)Cc1ccc(Cn2cc(CN3CCN([C@H](C)[C@](O)(Cn4cncn4)c4ccc(F)cc4F)CC3)c3ccccc32)cc1 |  | MIC80 | ATCC 64548 | resazurin |  | 8 µg/mL |
| Oc1ccc2c(c1)CCc1ccc(cc1)Oc1cc(ccc1O)CCc1cccc(O)c1-2 |  | MIC80 | CA10 | broth dilution |  | 16 µg/mL |
| CCCCCCCCCCCC[N+](C)(C)COCC(C)CCC |  | MBC | ATCC 10231 |  |  | 27.5 µM |
| C=CCSS(=O)CC=C |  | MIC90 | Clinical Isolate 0163 | broth dilution |  | 12.5 µg/mL |
| CC(C)(O)c1cn(-c2ccc3ccccc3c2)nn1 |  | inhibition | URM 4388 | broth dilution | 2048 µg/mL | 0% |
| Cc1ccc(C(C)C)cc1 |  | MLC | ATCC 10231 |  |  | 0.16–0.32 µg/mL |
| CC(C)(O)c1cn(-c2ccc([N+](=O)[O-])cc2)nn1 |  | inhibition | URM 4260 | broth dilution | 2048 µg/mL | 0% |
| Clc1ccc(C(CCn2ccnc2)Oc2ccc(Cl)cc2Cl)cc1 |  | MFC50 | 20 strains |  |  | 4 µg/mL |
| N#CC1C(c2cc3ccccc3nc2Cl)C2=C(CCCC2=O)N(c2cccnc2)C1N |  | MIC99 | MTCC 227 | broth dilution |  | 500 µg/mL |
| CCC(C)CCCCCCCCCCC(=O)N[C@H]1C[C@@H](O)[C@@H](OC)NC(=O)C2[C@@H](O)[C@@H](C)CN2C(=O)C(CO)NC(=O)C([C@H](O)C(O)c2ccc(O)cc2)NC(=O)NC(=O)[C@@H]2C[C@@H](O)CN2C(=O)[C@H]([C@@H](C)O)NC1=O |  | zone | IV | agar | 2 mg/mL | 26 mm |
| C/C=C/C1=CC2=CC(=O)[C@](C)(OC(=O)c3c(C)cc(O)c(O)c3OC)C(=O)C2=CO1 |  | zone | ATCC 64548 | agar diffusion | 1 µg/disc | 0 mm |
| COC(=O)[C@H]1[C@@H]2C[C@@H](O[C@@H]3O[C@H](C)[C@@H](O)[C@H](N)[C@@H]3O)/C=C/C=C/C=C/C=C/C=C/C=C/C=C/[C@H](C)[C@@H](O)[C@H](C)[C@H](C)OC(=O)C[C@H](O)C[C@H](O)[C@@H](O)CC[C@H](O)C[C@H](O)C[C@](O)(C[C@@H]1O)O2 | pH 7 | EC90 | 10 isolates | broth dilution |  | 1 µg/mL |
| CC1=CC[C@@H]2[C@H](C1)C2(C)C |  | MLC | ATCC 10231 |  |  | 0.32–0.64 µg/mL |
| S=C(S)n1nnc2ccccc21 | 48 h | EC50 |  | broth dilution / absorbance |  | >50 µg/mL |
| Nc1ncccc1-c1cc(Cc2ccc(COc3ccccn3)cc2)no1 | 30% human serum | MIC50 | IFM49971 | broth dilution |  | 0.06 µg/mL |
| CC(C)S(=O)(=O)N1CCN(c2cnn(-c3cc(F)cc(F)c3)c(=O)c2OC2CCC(F)C2)CC1 |  | MIC | C697 | broth dilution |  | 0.06 µg/mL |
| C[C@@H](N1CCN(Cc2cn(Cc3ccc(F)cc3F)c3ccc(C#N)cc23)CC1)[C@](O)(Cn1cncn1)c1ccc(F)cc1F |  | MIC80 | ATCC 64548 | resazurin |  | 0.125 µg/mL |
| CCOC(=O)C1C(c2cc3cc(Cl)ccc3nc2Cl)C2=C(CCCC2=O)N(c2cccnc2)C1N |  | MIC99 | MTCC 227 | broth dilution |  | >1000 µg/mL |
| CCC(C)CCCCCCCCCCC(=O)N[C@H]1C[C@@H](O)[C@@H](NCCN2CCOCC2)NC(=O)C2[C@@H](O)[C@@H](C)CN2C(=O)C(CO)NC(=O)C([C@H](O)C(NCCN2CCOCC2)c2ccc(O)cc2)NC(=O)NC(=O)[C@@H]2C[C@@H](O)CN2C(=O)[C@H]([C@@H](C)O)NC1=O |  | zone | IV | agar | 5 mg/mL | 19 mm |
| CCCCCCCCCCCC[N+](C)(C)CSCCCCCCCC |  | MBC | ATCC 10231 |  |  | 24.5 µM |
| CC(C)(O)c1cn(-c2cccc3ccccc23)nn1 |  | inhibition | URM 4387 | broth dilution | 2048 µg/mL | 0% |
| N#CC1C(c2cc3cc(Cl)ccc3nc2Cl)C2=C(CCCC2=O)N(c2cccnc2)C1N |  | MIC99 | MTCC 227 | broth dilution |  | 250 µg/mL |
| CCC(C)CCCCCCCCCCC(=O)N[C@H]1C[C@@H](O)[C@@H](OC)NC(=O)C2[C@@H](O)[C@@H](C)CN2C(=O)C(CO)NC(=O)C([C@H](O)C(OC)c2ccc(O)cc2)NC(=O)NC(=O)[C@@H]2C[C@@H](O)CN2C(=O)[C@H]([C@@H](C)O)NC1=O |  | zone | IV | agar | 5 mg/mL | 20 mm |
| C=CCc1ccc(O)c(OC)c1 |  | MIC90 | 2357 | turbidity |  | 500 µg/mL |
| CCCCCCCCCCCC[N+](C)(C)COC(CC)CCCCC |  | MBC | ATCC 10231 |  |  | 12.8 µM |
| Fc1ccc(C(CCn2ccnc2)Oc2ccc(Cl)cc2Cl)cc1 |  | MFC90 | 20 strains |  |  | 8 µg/mL |
| O[C@](Cn1cncn1)(Cn1cnc(/C=C/c2ccc(OCC(F)(F)C(F)F)cc2)n1)c1ccc(F)cc1F |  | Mean MIC50 |  |  |  | 0.11 µg/mL |
| CCC(C)CC(C)CCCCCCCCC(=O)N[C@H]1C[C@@H](O)[C@H](NCCN)NC(=O)[C@@H]2[C@@H](O)CCN2C(=O)[C@H]([C@H](O)CCN)NC(=O)[C@H]([C@H](O)[C@@H](O)c2ccc(O)cc2)NC(=O)[C@@H]2C[C@@H](O)CN2C(=O)[C@H]([C@@H](C)O)NC1=O | pH 7 | EC90 | 15 isolates | broth dilution |  | 0.125 µg/mL |
| COc1ccc2nc(Cl)c(C3C4=C(CCCC4=O)N(c4cccnc4)C(N)C3C#N)cc2c1 |  | MIC99 | MTCC 227 | broth dilution |  | 1000 µg/mL |
| O=c1c(OC2CCCC2)c(N2CCN(S(=O)(=O)NCc3ccccc3)CC2)cnn1-c1cccc(Cl)c1 |  | MIC | C-43 | broth dilution |  | 125 µg/mL |
| COC(=O)C1C(c2cc3cc(C)ccc3nc2Cl)C2=C(CCCC2=O)N(c2cccnc2)C1N |  | MIC99 | MTCC 227 | broth dilution |  | 500 µg/mL |
| CCC(C)n1ncn(-c2ccc(N3CCN(c4ccc(OC[C@H]5CO[C@](Cn6cncn6)(c6ccc(Cl)cc6Cl)O5)cc4)CC3)cc2)c1=O | pH 6 | EC90 | 10 isolates | broth dilution |  | 0.06 µg/mL |
| FC(F)(F)c1ccc(OC(CCn2ccnc2)c2ccccc2)cc1 |  | MFC90 | 20 strains |  |  | 128 µg/mL |
| C[C@@H](N1CCN(Cc2cn(Cc3ccc(C(F)(F)F)cc3)c3ccccc23)CC1)[C@](O)(Cn1cncn1)c1ccc(F)cc1F |  | MIC80 | ATCC 36082 | resazurin |  | 0.125 µg/mL |
| CC(C)[S+](C)CC[C@@H](C)C1CCC2C3CC=C4CC(O)CCC4(C)C3CCC21C.[I-] |  | MLC |  |  |  | 50 µg/mL |
| Fc1ccc(OC(CCn2ccnc2)c2ccccc2)c(F)c1 |  | MFC50 | 20 strains |  |  | 64 µg/mL |
| C[C@H]1[C@H](O)[C@@H](C)/C=C/C=C/C=C/C=C/C=C/C=C/C=C/[C@H](O[C@@H]2O[C@H](C)[C@@H](O)[C@H](N)[C@@H]2O)C[C@@H]2O[C@](O)(C[C@@H](O)C[C@@H](O)CC[C@H](O)[C@@H](O)C[C@@H](O)CC(=O)O[C@H]1C)C[C@H](O)[C@H]2C(=O)O |  | EC50 | purple | broth dilution |  | 1 µM |
| CCCCCCCC[N+](C)(C)COCCC(C)CCCC(C)C |  | MBC | ATCC 10231 |  |  | 1370 µM |
| CC(=O)N1CCN(c2ccc(OC[C@H]3CO[C@](Cn4ccnc4)(c4ccc(Cl)cc4Cl)O3)cc2)CC1 |  | MFC90 | 20 strains |  |  | 32 µg/mL |
| C[C@@H](N1CCN(Cc2cn(Cc3ccc(F)cc3)c3c(F)cccc23)CC1)[C@](O)(Cn1cncn1)c1ccc(F)cc1F |  | MIC80 | ATCC 90028 | resazurin |  | 2 µg/mL |
| CCC(C)CCCCCCCCCCC(=O)N[C@H]1C[C@@H](O)[C@@H](SCC(=O)OC)NC(=O)C2[C@@H](O)[C@@H](C)CN2C(=O)C(CO)NC(=O)C([C@H](O)C(O)c2ccc(O)cc2)NC(=O)NC(=O)[C@@H]2C[C@@H](O)CN2C(=O)[C@H]([C@@H](C)O)NC1=O |  | zone | IV | agar | 1 mg/mL | 20 mm |
| CCCCCCCCCCCC[N+](C)(C)COCCCCCCCCC |  | MBC | ATCC 10231 |  |  | 62 µM |
| Cc1ccc(C(C)C)cc1 |  | MLC | ATCC 10231 |  |  | >10 µg/mL |
| COC(=O)C1C(c2cc3cc(OC)ccc3nc2Cl)C2=C(CCCC2=O)N(c2cccnc2)C1N |  | MIC99 | MTCC 227 | broth dilution |  | 500 µg/mL |
| CCCCCCCCCCCC[N+](C)(C)COCCC(C)CCCC(C)C |  | MBC | ATCC 10231 |  |  | 1190 µM |
| CCC(C)n1ncn(-c2ccc(N3CCN(c4ccc(OC[C@H]5CO[C@](Cn6cncn6)(c6ccc(Cl)cc6Cl)O5)cc4)CC3)cc2)c1=O |  | Geometric mean MIC | 13 isolates fluconazole-resistant |  |  | 1.62 µg/mL |
| CCC(C)n1ncn(-c2ccc(N3CCN(c4ccc(OC[C@H]5CO[C@](Cn6cncn6)(c6ccc(Cl)cc6Cl)O5)cc4)CC3)cc2)c1=O |  | MIC50 |  | broth dilution |  | 0.016 µg/mL |
| Cc1ccc(-n2cc(C(C)(C)O)nn2)cc1C |  | inhibition | URM 4386 | broth dilution | 2048 µg/mL | 0% |
| Nc1[nH]c(=O)ncc1F | pH 6 | EC90 | 10 isolates | broth dilution |  | 2 µg/mL |
| CCCCCCCCCCCC[N+](C)(C)COCC(C)C |  | MBC | ATCC 10231 |  |  | 298 µM |

3 of the rows above, restated:

structure | conditions | read-out | strain or isolate | method | tested at | value
CCC(C)n1ncn(-c2ccc(N3CCN(c4ccc(OC[C@H]5CO[C@](Cn6cncn6)(c6ccc(Cl)cc6Cl)O5)cc4)CC3)cc2)c1=O |  | MIC50 |  | broth dilution |  | 0.016 µg/mL
COC(=O)[C@H]1[C@@H]2C[C@@H](O[C@@H]3O[C@H](C)[C@@H](O)[C@H](N)[C@@H]3O)/C=C/C=C/C=C/C=C/C=C/C=C/C=C/[C@H](C)[C@@H](O)[C@H](C)[C@H](C)OC(=O)C[C@H](O)C[C@H](O)[C@@H](O)CC[C@H](O)C[C@H](O)C[C@](O)(C[C@@H]1O)O2 | pH 7 | EC90 | 10 isolates | broth dilution |  | 1 µg/mL
C=CCc1ccc(O)c(OC)c1 |  | MIC90 | 2357 | turbidity |  | 500 µg/mL